What was measured:
α-hemolysin (M113N)7 = α-hemolysin (M113N)7 (Staphylococcus aureus, UniProt P09616, M139N)
[1] = biological target: α-hemolysin (M113R)7 pore (Staphylococcus aureus, UniProt P09616, M139R)
[2] = biological target: α-hemolysin (M113R)7/am7-βCD transient complex (Staphylococcus aureus, UniProt P09616, M139R); conditions: for Current level (L3) on nucleotide binding: 5 μM nucleotide in cis chamber, 40 μM am7-βCD trans, not normalised; for Probability of the added nucleotide to be detected as A (Aread) / Probability of the added nucleotide to be detected as C (Cread) / Probability of the added nucleotide to be detected as G (Gread) / Probability of the added nucleotide to be detected as T (Tread): from overlap of Gaussian distributions, all 4 nucleotides present; for Order of all point histogram current amplitudes among XMP: ribonucleotides, +110 mV, pH 8.0, 1M KCl
[3] = biological target: αHL-M113R single nanopore with unmodified β-cyclodextrin (Staphylococcus aureus, UniProt P09616, M139R); conditions: β-cyclodextrin 40 μM trans; dXMPs up to 300 μM trans or cis

Molecule	Probability of the added nucleotide to be detected as A (Aread) [2]	Probability of the added nucleotide to be detected as C (Cread) [2]	Probability of the added nucleotide to be detected as G (Gread) [2]	Probability of the added nucleotide to be detected as T (Tread) [2]	further results
heptakis-6-amino-β-cyclodextrin					Binding of adaptor to (M113N)7 (α-hemolysin (M113N)7): bind; Current level (L2) of reversible blocking events on adaptor binding ([1]; 40 μM in trans chamber, +130 mV, 1M KCl, pH 8.0): 65±5 pA; Share of conductance in current level L2′ when the adapter is bound ([1]; pH 8.0, 40 μM trans, +130 mV): less than 15%
Nc1nc2c(ncn2[C@H]2C[C@H](O)[C@@H](COP(=O)(O)O)O2)c(=O)[nH]1	0	0	0.88	0.12	Current level (L3) on nucleotide binding ([2]; +130 mV): 16 pA; Relative current block among the four dXMP ([2]; +130 mV): blocks the most current
β-cyclodextrin					Cyclodextrin binding to the pore (current blocking events) ([1]; 40 μM in trans chamber): current blocking events due to cyclodextrin binding were observed; Further current blocking events / nucleotide detection with unmodified β-cyclodextrin [3]: does not yield any detection
Nc1ccn([C@@H]2O[C@H](COP(=O)(O)O)[C@@H](O)[C@H]2O)c(=O)n1					Order of all point histogram current amplitudes among XMP [2]: highest current amplitude (smallest blocking)
Nc1nc2c(ncn2[C@@H]2O[C@H](COP(=O)(O)O)[C@@H](O)[C@H]2O)c(=O)[nH]1					Order of all point histogram current amplitudes among XMP [2]: lowest current (largest blocking)
Nc1ccn([C@H]2C[C@H](O)[C@@H](COP(=O)(O)O)O2)c(=O)n1	0.06	0.94	0	0	Current level (L3) on nucleotide binding ([2]; +130 mV): 22±1 pA
Cc1cn([C@H]2C[C@H](O)[C@@H](COP(=O)(O)O)O2)c(=O)[nH]c1=O	0.11	0	0.06	0.83	Types of binding events at pH 7.5 ([2]; pH 7.5, Tris-HCl 1M KCl): two types of events with different amplitudes
Nc1ncnc2c1ncn2[C@H]1C[C@H](O)[C@@H](COP(=O)(O)O)O1	0.74	0.07	0	0.19	

From patent US8785211B2 (priority 2005, dated 2014)
